Source: patent US20230331815A1 (priority 2020, published 2023)

System: VeroE6/Tmprss2 (VE6/T) cells
Assay: hLF internalization into cells, immunofluorescence and western blot
Assay type: cell-based, African green monkey
Details: 2.5 µM

B1: hLF: human lactoferrin (LF), 711 amino acids, SEQ ID NO:4; 70-80 kDa basic protein of the transferrin family (protein, listed as Homo sapiens)
chain: MKLVFLVLLFLGALGLCLAGRRRRSVQWCAVSQPEATKCFQWQRNMRKVRGPPVSCIKRDSPIQCIQAIAENRADAVTLDGGFIYEAGLAPYKLRPVAAEVYGTERQPRTHYYAVAVVKKGGSFQLNELQGLKSCHTGLRRTAGWNVPIGTLRPFLNWTGPPEPIEAAVARFFSASCVPGADKGQFPNLCRLCAGTGENKCAFSSQEPYFSYSGAFKCLRDGAGDVAFIRESTVFEDLSDEAERDEYELLCPDNTRKPVDKFKDCHLARVPSHAVVARSVNGKEDAIWNLLRQAQEKFGKDKSPKFQLFGSPSGQKDLLFKDSAIGFSRVPPRIDSGLYLGSGYFTAIQNLRKSEEEVAARRARVVWCAVGEQELRKCNQWSGLSEGSVTCSSASTTEDCIALVLKGEADAMSLDEGYVYTAGKCGLVPVLAENYKSQQSSDPDPNCVDRPVEGYLAVAVVRRSDTSLTWNSVKGKKSCHTAVDRTAGWNIPMGLLFNQTGSCKFDEYFSQSCAPGSDPRSNLCALCIGDEQGENKCVPNSNERYYGYTGAFRCLAENAGDVAFVKDVTVLQNTDGNNNEAWAKDLKLADFALLCLDGKRKPVTEARSCHLAMAPNHAVVSRMDKVERLKQVLLHQQAKFGRNGSDCPDKFCLFQSETKNLLFNDNTECLARLHGKTTYEKYLGPQYVAGITNLKKCSTSPLLEACEFLRK
Q: Which results are given for B1?
A: entry, accumulation and integrity in cells (western blot of cell lysate) (10 µM and 50 µM for 0.5, 2, 6 and 24 hours): enters, accumulates, and remains intact in cells for up to the 24 hours tested; cell entry (immunofluorescence) (10 µM and 50 µM for 24 hrs): enters the cells
